B1: Yeast FACT complex containing GFP-tagged full-length (FL) Spt16 (complex, budding yeast (S. cerevisiae))
chain 1: MEELNIDFDVFKKRIELLYSKYNEFEGSPNSLLFVLGSSNAENPYQKTTILHNWLLSYEFPATLIALVPGKVIIITSSAKAKHLQKAIDLFKDPESKITLELWQRNNKEPELNKKLFDDVIALINSAGKTVGIPEKDSYQGKFMTEWNPVWEAAVKENEFNVIDISLGLSKVWEVKDVNEQAFLSVSSKGSDKFMDLLSNEMVRAVDEELKITNAKLSDKIENKIDDVKFLKQLSPDLSALCPPNYKFNFDLLDWTYSPIIQSGKKFDLRVSARSTNDQLYGNGCILASCGIRYNNYCSNITRTFLIDPSEEMANNYDFLLTLQKEIVTNILKPGRTPKEVYESVIEYIEKTKPELVPNFTKNIGSLIGLEFRDSNFILNVKNDYRKIQRGDCFNISFGFNNLKDSQSANNYALQLADTVQIPLDETEPPRFLTNYTKAKSQISFYFNNEEEDNNKKKSSPATKVPSKPDRNSKILRTKLRGEARGGAEDAQKEQIRKENQKKLHEKLEKNGLLRFSAADANGPDSEPRQYFKKYESYVRDSQLPTNIRDLRIHVDWKSQTIILPIYGRPVPFHINSYKNGSKNEEGEYTYLRLNFNSPGSSGGISKKVEELPYEESADNQFVRSITLRSKDGDRMSETFKQIADLKKEATKREQERKALADVVQQDKLIENKTGRTKRLDQIFVRPNPDTKRVPSTVFIHENGIRFQSPLRTDSRIDILFSNIKNLIFQSCKGELIVVIHIHLKNPILMGKKKIQDVQFYREASDMSVDETGGGRRGQSRFRRYGDEDELEQEQEERRKRAALDKEFKYFADAIAEASNGLLTVENTFRDLGFQGVPNRSAVFCMPTTDCLVQLIEPPFLVINLEEVEICILERVQFGLKNFDMVFVYKDFNKPVTHINTVPIESLDFLKQWLTDMDIPYTVSTINLNWATIMKSLQDDPYQFFLDGGWNFLATGSDDEASDESEEEVSEYEASEDDVSDESAFSEDEEGSEVDDDISGDESEDYTGDESEEGEDWDELEKKAARADRGANFRD
chain 2: MSTDFDRIYLNQSKFSGRFRIADSGLGWKISTSGGSAANQARKPFLLPATELSTVQWSRGCRGYDLKINTKNQGVIQLDGFSQDDYNLIKNDFHRRFNIQVEQREHSLRGWNWGKTDLARNEMVFALNGKPTFEIPYARINNTNLTSKNEVGIEFNIQDEEYQPAGDELVEMRFYIPGVIQTNVDENMTKKEESSNEVVPKKEDGAEGEDVQMAVEEKSMAEAFYEELKEKADIGEVAGDAIVSFQDVFFTTPRGRYDIDIYKNSIRLRGKTYEYKLQHRQIQRIVSLPKADDIHHLLVLAIEPPLRQGQTTYPFLVLQFQKDEETEVQLNLEDEDYEENYKDKLKKQYDAKTHIVLSHVLKGLTDRRVIVPGEYKSKYDQCAVSCSFKANEGYLYPLDNAFFFLTKPTLYIPFSDVSMVNISRAGQTSTSSRTFDLEVVLRSNRGSTTFANISKEEQQLLEQFLKSKNLRVKNEDREVQERLQTALGSDSDEEDINMGSAGEDDESVDEDFQVSSDNDADEVAEEFDSDAALSDAEGGSDEERPSKKPKVE
notes: Spt16, subunit of the FACT complex, budding yeast; Pob3, subunit of the FACT complex, budding yeast; co-purified with tagged Spt16; also called FL FACT complex; wild-type FACT complex; source: purified from yeast cells on homemade GFP nanobody beads (500 mM NaCl wash)
B2: Yeast FACT complex containing GFP-tagged N-domain-deletion (ΔN) Spt16 (complex, budding yeast (S. cerevisiae))
chain 1: MRGGAEDAQKEQIRKENQKKLHEKLEKNGLLRFSAADANGPDSEPRQYFKKYESYVRDSQLPTNIRDLRIHVDWKSQTIILPIYGRPVPFHINSYKNGSKNEEGEYTYLRLNFNSPGSSGGISKKVEELPYEESADNQFVRSITLRSKDGDRMSETFKQIADLKKEATKREQERKALADVVQQDKLIENKTGRTKRLDQIFVRPNPDTKRVPSTVFIHENGIRFQSPLRTDSRIDILFSNIKNLIFQSCKGELIVVIHIHLKNPILMGKKKIQDVQFYREASDMSVDETGGGRRGQSRFRRYGDEDELEQEQEERRKRAALDKEFKYFADAIAEASNGLLTVENTFRDLGFQGVPNRSAVFCMPTTDCLVQLIEPPFLVINLEEVEICILERVQFGLKNFDMVFVYKDFNKPVTHINTVPIESLDFLKQWLTDMDIPYTVSTINLNWATIMKSLQDDPYQFFLDGGWNFLATGSDDEASDESEEEVSEYEASEDDVSDESAFSEDEEGSEVDDDISGDESEDYTGDESEEGEDWDELEKKAARADRGANFRD
chain 2: B1 chain 2
notes: Spt16 of budding yeast with residues 2–484 deleted (spt16-ΔN); Pob3, subunit of the FACT complex, budding yeast; co-purified with tagged Spt16-ΔN; also called Spt16-ΔN FACT complex; mutant FACT lacking the Spt16 N-terminus; source: purified from spt16-ΔN yeast cells on homemade GFP nanobody beads (500 mM NaCl wash)

Target: Recombinant Saccharomyces cerevisiae histone H3/H4 (Saccharomyces cerevisiae)
Assay: pull-down; FACT with GFP-tagged full-length or ΔN Spt16 held on GFP nanobody beads (washed with IP buffer with 500 mM NaCl, then 100 mM NaCl); recombinant histone H3/H4 added; bound proteins by immunoblotting
Details: both partners purified

Row | Binder | binding result
1 | B1 | binds
2 | B2 | binds
